Laboratory results: patent US6596723B1, “Fungal efflux pump inhibitors” (Essential Therapeutics, Inc., priority 2001, dated 2003)

Columns and labels:
[1] = test system: Candida albicans YEM15 (over-expressing the CDR1 and CDR2 pumps); type: cell-based; settings: strain YEM15; concentration of efflux pump inhibitor necessary to reduce the fluconazole MIC 8-fold
[2] = test system: C. glabrata YEM19 (over-expressing the CgCDR1 and CgCDR2 pumps); type: cell-based, Candida glabrata; settings: strain YEM19; efflux pump inhibitor concentration reducing fluconazole MIC 8-fold

SMILES	MPC8 [1]	MPC8 [2]
COc1ccc(N(C(=O)Nc2cccc(Cl)c2)C(C)c2nc3ccccc3c(=O)n2N2CCN(C)CC2)cc1 (centres unmarked) [Compound 4, 3-(3-Chloro-phenyl)-1-(4-methoxy-phenyl)-1-{1-[3-(4-methyl-piperazin-1-yl)-4-oxo-3,4-dihydro-quinazolin-2-yl]-ethyl}-urea]	2 µg/mL	32 µg/mL
COc1ccc(N(C(=O)Nc2ccccc2Cl)C(C)c2nc3ccccc3c(=O)n2N2CCN(C)CC2)c(OC)c1 (centres unmarked) [Compound 6, 3-(2-Chloro-phenyl)-1-(2,4-dimethoxy-phenyl)-1-{1-[3-(4-methyl-piperazin-1-yl)-4-oxo-3,4-dihydro-quinazolin-2-yl]-ethyl}-urea]	4 µg/mL	2 µg/mL
COc1ccc(N(C(=O)Nc2ccccc2)C(C)c2nc3ccccc3c(=O)n2N2CCN(C)CC2)c(OC)c1 (centres unmarked) [Compound 8, 1-(2,4-Dimethoxy-phenyl)-1-{1-[3-(4-methyl-piperazin-1-yl)-4-oxo-3,4-dihydro-quinazolin-2-yl)-ethyl}-3-phenyl-urea]	2 µg/mL	8 µg/mL
COc1ccc(N(C(=O)Nc2ccc(Cl)cc2)C(C)c2nc3ccccc3c(=O)n2N2CCN(C)CC2)cc1 (centres unmarked) [Compound 12, 3-(4-Chloro-phenyl)-1-(4-methoxy-phenyl)-1-{1-[3-(4-methyl-piperazin-1-yl)-4-oxo-3,4-dihydro-quinazolin-2-yl]-ethyl}-urea]	8 µg/mL	16 µg/mL
COc1ccc(N(C(=O)Nc2ccc(F)cc2)C(C)c2nc3ccccc3c(=O)n2N2CCN(C)CC2)c(OC)c1 (centres unmarked) [Compound 13, 1-(2,4-Dimethoxy-phenyl)-3-(4-fluoro-phenyl)-1-{1-[3-(4-methyl-piperazin-1-yl)-4-oxo-3,4-dihydro-quinazolin-2-yl]-ethyl}-urea]	4 µg/mL	4 µg/mL
COc1ccc(N(C(=O)Nc2ccc(C)cc2)C(C)c2nc3ccccc3c(=O)n2N2CCN(C)CC2)c(OC)c1 (centres unmarked) [Compound 14, 1-(2,4-Dimethoxy-phenyl)-1-{1-[3-(4-methyl-piperazin-1-yl)-4-oxo-3,4-dihydro-quinazolin-2-yl]-ethyl}-3-p-tolyl-urea]	2 µg/mL	2 µg/mL
COc1ccc(NC(=O)N(c2ccc(OC)cc2OC)C(C)c2nc3ccccc3c(=O)n2N2CCN(C)CC2)cc1 (centres unmarked) [Compound 15, 1-(2,4-Dimethoxy-phenyl)-3-(4-methoxy-phenyl)-1-{1-[3-(4-methyl-piperazin-1-yl)-4-oxo-3,4-dihydro-quinazolin-2-yl]-ethyl}-urea]	16 µg/mL	2 µg/mL
COc1ccc(N(C(=O)Oc2ccc(Cl)cc2)C(C)c2nc3ccccc3c(=O)n2N2CCN(C)CC2)c(OC)c1 (centres unmarked) [Compound 17, (2,4-Dimethoxy-phenyl)-{1-[3-(4-methyl-piperazin-1-yl)-4-oxo-3,4-dihydro-quinazolin-2-yl]-ethyl}-carbamic acid 4-chloro-phenyl ester]	8 µg/mL	16 µg/mL
CC(c1nc2ccccc2c(=O)n1N1CCN(C)CC1)N(C(=O)Nc1cccc(Cl)c1)c1ccc2c(c1)OCO2 (centres unmarked) [Compound 18, 1-Benzo[1,3]dioxol-5-yl-3-(3-chloro-phenyl)-1-{1-[3-(4-methyl-piperazin-1-yl)-4-oxo-3,4-dihydro-quinazolin-2-yl]-ethyl}-urea]	0.125 µg/mL	32 µg/mL
COc1ccc(N(C(=O)Oc2ccc(C)cc2)C(C)c2nc3ccccc3c(=O)n2N2CCN(C)CC2)c(OC)c1 (centres unmarked) [Compound 19, (2,4-Dimethoxy-phenyl)-{1-[3-(4-methyl-piperazin-1-yl)-4-oxo-3,4-dihydro-quinazolin-2-yl]-ethyl}-carbamic acid p-tolyl ester]	16 µg/mL	32 µg/mL
COc1ccc(N(C(=O)Nc2cccc(C)c2)C(C)c2nc3ccccc3c(=O)n2N2CCN(C)CC2)c(OC)c1 (centres unmarked) [Compound 20, 1-(2,4-Dimethoxy-phenyl)-1-{1-[3-(4-methyl-piperazin-1-yl)-4-oxo-3,4-dihydro-quinazolin-2-yl]-ethyl}-3-m-tolyl-urea]	0.5 µg/mL	1 µg/mL
COc1ccc(N(C(=O)Nc2cccc(F)c2)C(C)c2nc3ccccc3c(=O)n2N2CCN(C)CC2)c(OC)c1 (centres unmarked) [Compound 21, 1-(2,4-Dimethoxy-phenyl)-3-(3-fluoro-phenyl)-1-{1-[3-(4-methyl-piperazin-1-yl)-4-oxo-3,4-dihydro-quinazolin-2-yl)-ethyl}-urea]	0.25 µg/mL	2 µg/mL
COc1ccc(N(C(=O)Nc2cccc(Cl)c2)C(C)c2nc3ccccc3c(=O)n2C2CCN(C)CC2)c(OC)c1 (centres unmarked) [Compound 22, 3-(3-Chloro-phenyl)-1-(2,4-dimethoxy-phenyl)-1-{1-[3-(1-methyl-piperidin-4-yl)-4-oxo-3,4-dihydro-quinazolin-2-yl]-ethyl}-urea]	16 µg/mL	32 µg/mL
COc1ccc(N(C(=O)Nc2cccc(Cl)c2)C(C)c2nc3ccc(Cl)cc3c(=O)n2N2CCN(C)CC2)c(OC)c1 (centres unmarked) [Compound 23, 1-{1-[6-Chloro-3-(4-methyl-piperazin-1-yl)-4-oxo-3,4-dihydro-quinazolin-2-yl)-ethyl}-3-(3-chloro-phenyl)-1-(2,4-dimethoxy-phenyl)-urea]	0.25 µg/mL	2 µg/mL
COc1ccc(N(C(=O)Nc2ccccc2)C(C)c2nc3ccc(Cl)cc3c(=O)n2N2CCN(C)CC2)c(OC)c1 (centres unmarked) [Compound 24, 1-{1-[6-Chloro-3-(4-methyl-piperazin-1-yl)-4-oxo-3,4-dihydro-quinazolin-2-yl]-ethyl}-1-(2,4-dimethoxy-phenyl)-3-phenyl-urea]	0.125 µg/mL	4 µg/mL
COc1ccc(NC(=O)N(c2ccc(OC)cc2OC)C(C)c2nc3ccc(Cl)cc3c(=O)n2N2CCN(C)CC2)cc1 (centres unmarked) [Compound 25, 1-{1-[6-Chloro-3-(4-methyl-piperazin-1-yl)-4-oxo-3,4-dihydro-quinazolin-2-yl]-ethyl}-1-(2,4-dimethoxy-phenyl)-3-(4-methoxy-phenyl)-urea]	1 µg/mL	4 µg/mL
CC(c1nc2ccccc2c(=O)n1N1CCN(C)CC1)N(C(=O)Nc1ccc(Cl)cc1)c1ccc2c(c1)OCO2 (centres unmarked) [Compound 31, 1-Benzo[1,3]dioxol-5-yl-3-(4-chloro-phenyl)-1-{1-[3-(4-methyl-piperazin-1-yl)-4-oxo-3,4-dihydro-quinazolin-2-yl]-ethyl}-urea]	2 µg/mL	16 µg/mL
COc1ccc(N(C(=O)Oc2ccc(Cl)cc2)C(C)c2nc3ccc(Cl)cc3c(=O)n2N2CCN(C)CC2)c(OC)c1 (centres unmarked) [Compound 35, {1-[6-Chloro-3-(4-methyl-piperazin-1-yl)-4-oxo-3,4-dihydro-quinazolin-2-yl]-ethyl}-(2,4-dimethoxy-phenyl)-carbamic acid 4-chloro-phenyl ester]	4 µg/mL	8 µg/mL
COc1ccc(N(C(=O)Nc2ccc(Cl)cc2)C(C)c2nc3ccc(F)cc3c(=O)n2N2CCN(C)CC2)c(OC)c1 (centres unmarked) [Compound 38, 3-(4-Chloro-phenyl)-1-(2,4-dimethoxy-phenyl)-1-{1-[6-fluoro-3-(4-methyl-piperazin-1-yl)-4-oxo-3,4-dihydro-quinazolin-2-yl]-ethyl}-urea]	0.5 µg/mL	0.25 µg/mL
COc1ccc(N(C(=O)Nc2ccc(F)cc2)C(C)c2nc3ccccc3c(=O)n2N2CCN(CCO)CC2)c(OC)c1 (centres unmarked) [Compound 40, 1-(2,4-Dimethoxy-phenyl)-3-(4-fluoro-phenyl)-1-(1-{3-[4-(2-hydroxy-ethyl)-piperazin-1-yl]-4-oxo-3,4-dihydro-quinazolin-2-yl}-ethyl)-urea]	2 µg/mL	4 µg/mL
COc1ccc(N(C(=O)Nc2ccc(F)cc2)C(C)c2nc3ccccc3c(=O)n2N2CCN(CCCl)CC2)c(OC)c1 (centres unmarked) [Compound 41, 1-(1-{3-[4-(2-Chloro-ethyl)-piperazin-1-yl)-4-oxo-3,4-dihydro-quinazolin-2-yl}-ethyl)-1-(2,4-dimethoxy-phenyl)-3-(4-fluoro-phenyl)-urea]	8 µg/mL	8 µg/mL
COc1ccc(N(C(=O)Nc2ccc(F)cc2)C(C)c2nc3ccc(F)cc3c(=O)n2N2CCN(CCO)CC2)c(OC)c1 (centres unmarked) [Compound 42]	1 µg/mL	1 µg/mL
COc1ccc(N(C(=O)Nc2ccc(Cl)cc2)C(C)c2nc3ccc(Cl)cc3c(=O)n2CCNC(C)=N)c(OC)c1 (centres unmarked) [Compound 43, N-[2-(6-Chloro-2-{1-[3-(4-chloro-phenyl)-1-(2,4-dimethoxy-phenyl)-ureido]-ethyl}-4-oxo-4H-quinazolin-3-yl)-ethyl]-acetamidine]	4 µg/mL	1 µg/mL
COc1ccc(N(C(=O)Nc2ccc(C)cc2)C(C)c2nc3ccc(C)cc3c(=O)n2N2CCN(C)CC2)c(OC)c1 (centres unmarked) [Compound 44, 1-(2,4-Dimethoxy-phenyl)-1-{1-[6-methyl-3-(4-methyl-piperazin-1-yl)-4-oxo-3,4-dihydro-quinazolin-2-yl]-ethyl}-3-p-tolyl-urea]	0.25 µg/mL	2 µg/mL
COc1ccc(N(C(=O)Nc2ccc(C)cc2)C(C)c2nc3ccc(OC)cc3c(=O)n2N2CCN(C)CC2)c(OC)c1 (centres unmarked) [Compound 45, 1-(2,4-Dimethoxy-phenyl)-1-{1-[6-methoxy-3-(4-methyl-piperazin-1-yl)-4-oxo-3,4-dihydro-quinazolin-2-yl]-ethyl}-3-p-tolyl-urea]	1 µg/mL	1 µg/mL
